## Screening data, single-dose tests

From ChEMBL document CHEMBL3988442, “University of Dundee, Small-Polar-MMV Screening Library” (2021).

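Growth of Mycobacterium tuberculosis over 3 days (7H9 medium with glucose and tyloxapol); the read-out is not stated. Concentration: 500 µM. Higher reads as more growth inhibition (inferred: compounds with an IC50 in retests scored well above the rest). About 18,000 compounds were tested under these conditions; 7.9% (about 1,400) showed 50% or more at least once.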

Values are the deposited “Percent Effect”, in %.
How 0% and 100% were set is not recorded. Most values in the screen are low, and negative values occur.
This is part of a subset picked to be rich in strong results.

| # | compound | Percent Effect |
|---|---|---|
| 1 | `CCN1CCN(C(=O)c2cccc(C)c2O)CC1` | 14.19 |
| 2 | `CC1CCN(Cc2nnnn2C2CC2)CC1` | 35.41 |
| 3 | `Cc1ncc(S(C)(=O)=O)c(NC2CCOCC2)n1` | 9.023 |
| 4 | `CCO[C@H]1CN(c2nc(-c3ccccc3)no2)C[C@@H]1O` | 56.96 |
| 5 | `CCC(C)NC(=O)c1cc(F)cc(F)c1` (stereo not drawn) | 65.82 |
| 6 | `Oc1cccc(C2CNCCO2)c1` (stereo not drawn) | 23.92 |
| 7 | `CC(O)CCc1ccc(O)cc1` (stereo not drawn) | 11.18 |
| 8 | `O=C1CN(C(=O)CNc2c(F)cccc2Cl)CCN1` | 3.69 |
| 9 | `O=C1CCC(NS(=O)(=O)Cc2c(Cl)cccc2Cl)CN1` (stereo not drawn) | 20.34 |
| 10 | `CC(=O)c1c(C)[nH]c(C(=O)OCC(=O)N(C)C)c1C` | 76.27 |
| 11 | `COCC(C)NC(=O)c1ccc(OC)c(F)c1` (stereo not drawn) | 38.27 |
| 12 | `CN1C(=O)C[C@@H](N)[C@@H]1c1ccnn1C` | 5.464 |
| 13 | `CN1CCN(C(=O)c2cc3ccccc3o2)CC1` | 66.64 |
| 14 | `CCN1CCN(CCOc2ccc(C#N)cc2)CC1` | -12.48 |
| 15 | `CCC(CC)N(C)C(=O)CNC(=O)C1CC1` | 13.12 |
| 16 | `N#CCOC(=O)c1ccc(-n2cnnn2)cc1` | 0.06781 |
| 17 | `NCc1cc(Oc2cccc(F)c2)ccn1` | 59.25 |
| 18 | `CN1CCC(N(C)CC(O)COCc2cccs2)CC1` (stereo not drawn) | 11.02 |
| 19 | `Cc1csc(C(C)CNC(=O)c2cc(CO)ccn2)n1` (stereo not drawn) | 37.81 |
| 20 | `CC1CCN(CC(=O)N(C)CCc2cnn(C)c2)C1=O` (stereo not drawn) | -14.82 |
| 21 | `CC(CCc1ccc(O)cc1)NC1(CO)CC1` (stereo not drawn) | 57.9 |
| 22 | `COCCCNC(=O)NCCC(=O)OC(C)(C)C` | 2.4 |
| 23 | `CCc1cc(C(N)=O)sc1C` | 29.13 |
| 24 | `CN(C)c1cc(CNC(=O)NCC2CCOC2)ccn1` (stereo not drawn) | 0.01208 |
| 25 | `O=C(Cn1ccc(C(F)(F)F)n1)Nc1ccccn1` | 54.62 |
| 26 | `CN(C)C(=O)C(C)(C)NC(=O)[C@H](O)c1ccccc1Cl` | -1.913 |
| 27 | `O=C(CCc1ccco1)NCC(O)c1ccccc1F` (stereo not drawn) | 30.43 |
| 28 | `CCc1cccc(NC(=O)CCNC(C)=O)c1` | 20.46 |
| 29 | `C[C@@H](N)C(=O)NCc1cc2cc(Cl)ccc2[nH]1` | 22.03 |
| 30 | `Cn1nccc1CCNc1ccc(F)cn1` | 21.84 |
| 31 | `C[C@H]1C[C@@H](CO)CCN1` | 0.1476 |
| 32 | `CCOc1ccc2c(c1)C(N)CCO2` (stereo not drawn) | 46.06 |
| 33 | `CC(Sc1ccccn1)C(=O)NCCn1ccnc1` (stereo not drawn) | 9.407 |
| 34 | `COc1ccc(NC(=O)C2=CCOCC2)cc1OC` | 14.23 |
| 35 | `CCCN1CCC(NC(=O)C(C)C)CC1` | 4.994 |
| 36 | `CSCc1cc(F)ccc1CNC(=O)[C@H]1CCC(=O)N1` | 19.05 |
| 37 | `O=C(Cc1ccc(O)c(Cl)c1)N[C@@H]1CS(=O)(=O)C[C@H]1O` | 5.555 |
| 38 | `COCCNC(C)COC` (stereo not drawn) | 2.304 |
| 39 | `CC1(C)CCCN(C(=O)CCS(C)(=O)=O)CC1` | 35.74 |
| 40 | `O=C(NC1CC1)c1ccc(S(=O)(=O)N2CCCC2)cc1` | 23.36 |
| 41 | `CNCc1ccc(N)nc1` | -10.16 |
| 42 | `COc1ccc(CCSc2nnc[nH]2)cc1` | 71.36 |
| 43 | `CN(C)Cc1ccc(-c2nc(C3CCOC3)no2)o1` (stereo not drawn) | 17.79 |
| 44 | `CN(C)C(CNC(=O)c1ncccc1O)c1ccco1` (stereo not drawn) | 6.02 |
| 45 | `CN(C)c1cc(C(=O)Nc2ccccc2F)ccn1` | 80.91 |
| 46 | `CO[C@@H]1COCC[C@H]1NC(=O)c1ccncc1Cl` | 8.262 |
| 47 | `CC(C)NC(=O)NCCN(C)C1CCCC1` | -1.647 |
| 48 | `NC1CCC(OCC(=O)Nc2nccs2)CC1` (stereo not drawn) | -6.532 |
| 49 | `CN(C)S(=O)(=O)N1CCC(Oc2ccccc2Cl)CC1` | 84.12 |
| 50 | `CCN1CCN(C2CCNCC2)CC1` | -9.51 |
| 51 | `O=C(c1ccc(Cl)cc1)N1CCCNCC1` | 29.94 |
| 52 | `CN(CC1COc2ccccc2O1)C(=O)C1CCC1` (stereo not drawn) | 88.23 |
| 53 | `O=C1CN(Cc2ccccc2)C(=O)CN1` | 5.3 |
| 54 | `CC1(C(=O)NCCN2CCCCC2)CCCCC(=O)N1` (stereo not drawn) | 13.72 |
| 55 | `Cn1cc(C(C)(O)CN)cn1` (stereo not drawn) | -11.07 |
| 56 | `CCC(=O)NC1CCNC1` (stereo not drawn) | 0.2667 |
| 57 | `CC1CCCN(C(=O)CSCC(N)=O)CC1` (stereo not drawn) | 38.55 |
| 58 | `CC(C)NS(=O)(=O)c1cc(CO)ccc1F` | 7.947 |
| 59 | `CC(OCC(F)(F)F)C(=O)Nc1cnn(C)c1` (stereo not drawn) | 5.528 |

For reference, 4 entries once more:

compound	Percent Effect
O=C(c1ccc(Cl)cc1)N1CCCNCC1	29.94
CCOc1ccc2c(c1)C(N)CCO2 (stereo not drawn)	46.06
COCCNC(C)COC (stereo not drawn)	2.304
CCC(C)NC(=O)c1cc(F)cc(F)c1 (stereo not drawn)	65.82